Measured values from several laboratories, pooled; numbers as filed in NIAID ChemDB.

All rows: tests in culture; agent: Mycobacterium tuberculosis

Blank or dashed fields: not listed here. a–b is a range or a potency band. Inhibition is in % at the dose shown (toxicity tests: loss of growth or viability). MIC bound: limit read from a one-dose screen. MIC50, MIC90 and the like: level of inhibition, or share of isolates inhibited. Neighbouring rows are from separate reports. ECn is the concentration giving n% inhibition of infection, replication or growth.

SMILES,dose,setting,method,strain or isolate,measure,cell line,mutations,result
c1ccc(-c2cc3ccc(N4CCCCC4)nc3nc2N2CCNCC2)cc1,,,,H37Rv,MIC,,,>6.25 µg/mL
C/C=C(/C)C(=O)OC1CC(C)(C)CC2C3=CCC4C5(C)CC[C@H](O)C(C)(C)C5CC[C@@]4(C)[C@]3(C)CC[C@@]12C(=O)O,,,,H37Rv (streptomycin-resistant),MIC,,,50 µg/mL
O=C(N=Nc1c(NNC(=O)c2ccc([N+](=O)[O-])cc2)c(O)c2ccccc2c1O)c1ccc([N+](=O)[O-])cc1,,,BACTEC,H37Rv,MIC bound,,,>12.5 µg/mL
CCN1CCN(c2cc(-c3ccccc3)c3ccc(Cl)nc3n2)CC1,6.25 µg/mL,,,H37Rv,inhibition,,,68%
N/C(=N/N=C/c1cccc(Br)c1)c1ccccn1,,,,1454 (THC-resistant),MIC,,,64 µg/mL
CO[C@H]1/C=C/O[C@@]2(C)Oc3c(C)c(O)c4c(O)c(c(/C=N/N5CCN(C6CCCC6)CC5)c(O)c4c3C2=O)NC(=O)/C(C)=C\C=C\[C@H](C)[C@H](O)[C@@H](C)[C@@H](O)[C@@H](C)[C@H](OC(C)=O)[C@@H]1C,,,,H37Rv,MIC,,,0.03 µg/mL
C[C@]1(COc2ccc(N3CCC(COc4ccc5c(c4)oc4ccccc45)CC3)cc2)Cn2cc([N+](=O)[O-])nc2O1,,,,H37Rv,MIC,,,0.024 µg/mL
Cn1c(=O)nc2n(-c3ccc(Cl)c(C(F)(F)F)c3)c3ccccc3nc-2c1=O,,,BACTEC,H37Rv,MIC bound,,,>12.5 µg/mL
CN(c1ccccc1)C1CCN(c2ccc(OC[C@@]3(C)Cn4cc([N+](=O)[O-])nc4O3)cc2)CC1,,,,H37Rv,MIC,,,0.024 µg/mL
c1ccc(-n2cc(CNC3c4ccccc4-c4ccccc43)nn2)cc1,,,broth dilution,Specimen 192,MIC99,,,>295 µM
CN(Cc1cccc(C(F)(F)F)c1)C1CCN(c2ccc(OC[C@@]3(C)Cn4cc([N+](=O)[O-])nc4O3)cc2)CC1,,,,H37Rv,MIC,,,0.024 µg/mL
Clc1ccc(-n2cc(CSC3c4ccccc4-c4ccccc43)nn2)cc1,,,broth dilution,H37Rv,MIC99,,,74.2 µM
CC(SC(C)C(=O)NN=C1CCSCC1)C(=O)NN=C1CCSCC1,,,BACTEC,H37Rv,MIC bound,,,>12.5 µg/mL
CC(C)Cc1ccc(CN(C)C2CCN(c3ccc(OC[C@@]4(C)Cn5cc([N+](=O)[O-])nc5O4)cc3)CC2)cc1,,,,H37Rv,MIC,,,0.012 µg/mL
CC1COc2c(N3CCN(C)CC3)c(F)cc3c(=O)c(C(=O)O)cn1c23,,,,001-012 (drug-resistant),MBC,,,2 µg/mL
C[C@]1(COc2ccc(N3CCC(Nc4ccc(C(F)(F)F)cc4Cl)CC3)cc2)Cn2cc([N+](=O)[O-])nc2O1,,,,H37Rv,MIC,,,0.012 µg/mL
Cc1ncc2c(n1)CCC1=C2OS(=O)(=O)CC1N(C)C,12.5 µg/mL,,BACTEC,H37Rv,inhibition,,,0%
CCCCS(=O)(=O)Nc1ccc2[nH]c(C(=O)OC(C)(C)C)c(C)c2c1,,,resazurin,H37Rv,MIC90,,,0.78 µM
C[C@]1(COc2ccc(N3CCC(Nc4ccc(Cl)c(Cl)c4)CC3)cc2)Cn2cc([N+](=O)[O-])nc2O1,,,,H37Rv,MIC,,,0.012 µg/mL
N#Cc1c2c(c(Nc3ccc(Cl)cc3)n3c1nc1ccccc13)CCCC2,6.25 µg/mL,,resazurin,H37Rv,inhibition,,,51%
CO[C@H]1/C=C/O[C@@]2(C)Oc3c(C)c(O)c4c(O)c(c(/C=N/N5CCN(C)CC5)c(O)c4c3C2=O)NC(=O)/C(C)=C\C=C\[C@H](C)[C@H](O)[C@@H](C)[C@@H](O)[C@@H](C)[C@H](OC(C)=O)[C@@H]1C,,,,V2475,MIC,,,0.39 µM
COc1cc(/C=C/C(=O)NCC(=O)NN)cc(OC)c1OC,,,BACTEC,H37Rv,MIC,,,≥12.5 µg/mL
COc1ncc(F)c2nc(S(=O)(=O)Nc3ncccc3C(C)=O)nn12,,,visual reading,X24,MIC50,,INH RIF resistant,0.5 µM
CC(NC(=O)c1ccccc1C(F)(F)F)c1nnc(SCCOc2ccc(F)cc2)n1Cc1ccc(F)cc1,,7 d,broth dilution,H37Rv (ATCC 27294),MIC,,,>64 µg/mL
C[C@]1(COc2ccc(N3CCN(C/C=C/c4ccc(Cl)cc4Cl)CC3)cc2)Cn2cc([N+](=O)[O-])nc2O1,,,,H37Rv,MIC,,,<0.12 µg/mL
O=C1NC(NNC(=O)c2ccncc2)=N/C1=C\c1cccc(Cl)c1,,,,Capreomycin-resistant,MIC,,,≤0.39 µg/mL
Fc1ccccc1-n1cc(CNC2c3ccccc3-c3ccccc32)nn1,,,broth dilution,H37Rv,MIC99,,,281 µM
N#Cc1cccc(-c2ccc(OCC(=O)O)cc2CN2CCN(c3ccccn3)CC2)c1,,,broth dilution,H37Rv (ATCC 27294),MIC,,,32 µg/mL
Nc1ccc2c(-c3ccccc3)cc(N3CCN(c4ccccc4)CC3)nc2n1,,,,H37Rv,MIC,,,>6.25 µg/mL
CCCCS(=O)(=O)Nc1ccc2[nH]c(C(=O)NCCNC(=O)c3ccc([N+](=O)[O-])o3)c(C)c2c1,,,resazurin,H37Rv,MIC90,,,1.56 µM
O=C1NC(Nc2ccc(Cl)cc2)=N/C1=C\c1ccc(Cl)cc1Cl,,,,H37Rv,EC50,,,<12.5 µg/mL
N#Cc1c(C#N)c(-c2cccc([N+](=O)[O-])c2)n(-c2ccccc2)c1N,6.25 µg/mL,,BACTEC,H37Rv,inhibition,,,0%
O=c1ccc2c(-c3ccccc3)cc(N3CCOCC3)nc2[nH]1,,,,H37Rv,MIC,,,>6.25 µg/mL
O=C(O)COc1ccc(-c2ccc(Cl)cc2)c(CN2CCN(c3ccccn3)CC2)c1,,,broth dilution,H37Rv (ATCC 27294),MIC,,,64 µg/mL
c1ccc(-c2cc3ccc(N4CCOCC4)nc3nc2N2CCCCC2)cc1,,,,H37Rv,MIC,,,>6.25 µg/mL
COc1cc(-n2cc(CSC3c4ccccc4-c4ccccc43)nn2)cc(OC)c1OC,,,broth dilution,H37Rv,MIC99,,,56.11 µM
COc1ccc(CCC2CCc3ccccc3N2C)cc1OC,,,,MT6,MIC,,,>322 µg/mL
C[C@]1(COc2ccc(N3CCN(Cc4csc(-c5ccc(C(F)(F)F)cc5)n4)CC3)cc2)Cn2cc([N+](=O)[O-])nc2O1,,,,H37Rv,MIC,,,0.024 µg/mL
O=[N+]([O-])c1cc2cc(-c3ccccc3)c(N3CCCCC3)nc2nc1N1CCCCC1,,,,H37Rv,MIC,,,>6.25 µg/mL
NC(=O)c1cnccn1,,,,Isolate 9721 monodrug-resistant,MIC,,,>300 µg/mL
N/C(=N/N=C/c1ccccc1Cl)c1ccccn1,,,,H37Rv,MIC,,,8 µg/mL
C[C@@H]1Cn2cc(C(=O)O)c(=O)c3cc(F)c(N4CCN(/C(N)=N/C(N)=NCCCCCCN=C(N)/N=C(\N)N5CCN(c6c(F)cc7c(=O)c(C(=O)O)cn8c7c6O[C@@H](C)C8)CC5)CC4)c(c32)O1,,,broth dilution,ATCC 35827,MIC,,,1.25–2.5 µg/mL
N/C(=N/N=C/c1ccc(Cl)cc1)c1ccccn1,,,,H37Rv,MIC,,,64 µg/mL
O=c1cc(-c2ccccc2)c2cc(Cl)ccc2o1,,,resazurin,,MIC90,,Kanamycin-resistant,>100 µg/mL
CCCCS(=O)(=O)Nc1ccc2[nH]c(C(=O)NCc3ccccc3C)c(C)c2c1,,,resazurin,H37Rv,MIC90,,,100 µM
Cc1ccn2nc(S(=O)(=O)Nc3c(Br)ccc4cccnc34)nc2n1,,,visual reading,X59,MIC50,,INH RIF resistant,0.5 µM
N#Cc1ccc(/C=N/N=C(\N)c2ccccn2)cc1,,,,H37Rv,MIC,,,500 µg/mL
O=C(CCCC(=O)NNC(=O)Nc1ccc(Cl)cc1)NNC(=O)Nc1ccc(Cl)cc1,12.5 µg/mL,,BACTEC,H37Rv,inhibition,,,5%
CC(=O)Oc1ccccc1C(=O)Nc1ncc([N+](=O)[O-])s1,,,visual reading,LAM spoligotype 42,MIC,,,12 µg/mL
N/C(=N/N=C/c1ccccc1Br)c1ccccn1,,,,H37Rv,MIC,,,8 µg/mL
NC(=O)c1cnccn1,,,,T2603 niacin-negative,MIC,,,16 µg/mL
NC(=Nc1ccc(S(=O)(=O)Nc2cnc3ccccc3n2)cc1)/N=C(\N)Nc1ccc(Br)cc1,,,resazurin,H37Rv,MIC bound,,,<6.25 µg/mL
CCOC(=O)COc1ccc(-c2ccccc2Cl)c(CN2CCN(c3ccccn3)CC2)c1,,,broth dilution,H37Rv (ATCC 27294),MIC,,,8 µg/mL
Clc1ccc(-n2cc(CNC3c4ccccc4-c4ccccc43)nn2)c(Cl)c1,,,broth dilution,H37Rv,MIC99,,,>246 µM
CC(C)(C)C1=CC(=CC=C2C=CN(CCCCCCCCCCCO)C=C2)C=C(C(C)(C)C)C1=O,,,,H37Rv,MIC,VERO,,1.6 µg/mL
O=C1NC(NNC(=O)c2ccncc2)=N/C1=C\c1ccc(Cl)cc1,,,,Erdman,MIC,,,12.5 µg/mL
Nc1ccc2cc(-c3ccccc3)c(N3CCCCC3)nc2n1,,,,H37Rv,MIC,,,>6.25 µg/mL
C[C@]1(COc2ccc(N3CCC(Cc4ccc(Cl)cc4)CC3)cc2)Cn2cc([N+](=O)[O-])nc2O1,,,,H37Rv,MIC,,,0.024 µg/mL
CCCCCCCCCCC[C@@H]1CCC[C@H](C)N1,,,BACTEC,H37Rv,MIC bound,,,≤12.5 µg/mL
N/C(=N/N=C/c1ccccc1)c1ccccn1,,,,1454 (THC-resistant),MIC,,,64 µg/mL
O=C1NC(NNC(=O)c2ccncc2)=N/C1=C\c1ccccc1Cl,,,,H37Rv,MBC,,,50 µg/mL
CC12CCC(C(=O)N(c3nccs3)C1=O)C2(C)C,,,BACTEC,H37Rv,MIC bound,,,>12.5 µg/mL
CCCCS(=O)(=O)Nc1ccc2[nH]c(C(N)=O)c(C)c2c1,,,resazurin,DRM167 32x2,MIC90,,G240S DG167-resistant,>100 µM
COc1ccc(N2CN(C)CSC2=S)cc1,,,BACTEC,H37Rv,MIC bound,,,>12.5 µg/mL
FC(F)(F)c1ccc(-n2cc(CSC3c4ccccc4-c4ccccc43)nn2)cc1,,,broth dilution,Specimen 192,MIC99,,,>236 µM
O=[N+]([O-])c1ccc(C2Nc3cc(Cl)c(Cl)cc3S(=O)(=O)N2O)cc1,6.25 µg/mL,,BACTEC,H37Rv,inhibition,,,1%
CC(NC(=O)c1ccccc1C(F)(F)F)c1nnc(SCCOc2ccc(F)cc2)n1C,,,broth dilution,H37Rv (ATCC 27294),MIC,,,>64 µg/mL
COc1ccc(/C=C/COC(=O)/C=C/c2ccc(OC)c(OC)c2)cc1OC,,,BACTEC,H37Rv,MIC bound,,,>12.5 µg/mL
O=c1ccc2c(-c3ccccc3)cc(N3CCCCC3)nc2[nH]1,6.25 µg/mL,,,H37Rv,inhibition,,,0%
Cc1nc(C(=O)O)c(=O)[nH]c1C,,,BACTEC,H37Rv,MIC bound,,,>12.5 µg/mL
CCCCCS(=O)(=O)Nc1ccc2[nH]c(C(N)=O)c(C)c2c1,,,resazurin,H37Rv,MIC90,,,1.6 µM
CC1(C)CC(N2CCN(C3CC(C)(C)NC(C)(C)C3)CC2)CC(C)(C)N1,,,resazurin,H37Rv,MIC bound,,,>6.25 µg/mL
CCC(C)OC(=O)N1CCN(c2ccc3cc(-c4ccccc4)c(N4CCN(C(=O)OC(C)CC)CC4)nc3n2)CC1,,,,H37Rv,MIC,,,>6.25 µg/mL
C=C1[C@H]([C@]2(C)[C@@H](OC(C)=O)CC(=O)O[C@@](C)(COC(C)=O)[C@@H]2CC(=O)OC)[C@@H](OC=O)[C@H](OC(=O)[C@H](O)[C@H](C)CC)[C@@]2(C)[C@@H](c3ccoc3)CC(=O)[C@]12O,,,BACTEC,H37Rv,MIC,,,≥12.5 µg/mL
O=S(=O)(Cc1cn(-c2ccc(C(F)(F)F)cc2)nn1)C1c2ccccc2-c2ccccc21,,,broth dilution,Specimen 192,MIC99,,,110 µM
Cc1ccc(N=Nc2c(O)c3ccccc3[nH]c2=O)c(S(=O)(=O)N(C)C)c1,,,BACTEC,H37Rv,MIC bound,,,>12.5 µg/mL
COc1ccc(-c2ccc(OCC(=O)O)cc2CN2CCN(c3ccccn3)CC2)cc1,,,broth dilution,H37Rv (ATCC 27294),MIC,,,32 µg/mL
CCN(CC)CCNc1ccc2nc(C)n3c4ccc(OC)cc4c(=O)c1c23.Cl,,,BACTEC,H37Rv,MIC bound,,,≤12.5 µg/mL
CCCCCc1cc(OC)c2ccccc2n1,,,,MT5,MIC,,,12.5 µg/mL

For reference, 5 entries again:

SMILES,dose,setting,method,strain or isolate,measure,cell line,mutations,result
CCOC(=O)COc1ccc(-c2ccccc2Cl)c(CN2CCN(c3ccccn3)CC2)c1,,,broth dilution,H37Rv (ATCC 27294),MIC,,,8 µg/mL
COc1cc(-n2cc(CSC3c4ccccc4-c4ccccc43)nn2)cc(OC)c1OC,,,broth dilution,H37Rv,MIC99,,,56.11 µM
N#Cc1c(C#N)c(-c2cccc([N+](=O)[O-])c2)n(-c2ccccc2)c1N,6.25 µg/mL,,BACTEC,H37Rv,inhibition,,,0%
CCN1CCN(c2cc(-c3ccccc3)c3ccc(Cl)nc3n2)CC1,6.25 µg/mL,,,H37Rv,inhibition,,,68%
O=C(N=Nc1c(NNC(=O)c2ccc([N+](=O)[O-])cc2)c(O)c2ccccc2c1O)c1ccc([N+](=O)[O-])cc1,,,BACTEC,H37Rv,MIC bound,,,>12.5 µg/mL